In publication PMC12510602:
Construct, isoform or probe ends are uncertain for at least one entry.

What was measured:
[1] = system: NcMYC (Nephotettix cincticeps); assay: EMSA; conditions: 50 mM Tris-HCl pH 7.5, 5 mM EDTA, 10 mM MgCl2, 0.5 M NaCl, 5 mM DTT, 0.05 mg/mL poly(dI-dC), 20 ul, room temperature 30 min, 6% native PAGE, recombinant …
[2] = system: NcSMARCB1 (Nephotettix cincticeps); assay: EMSA; conditions: 50 mM Tris-HCl pH 7.5, 5 mM EDTA, 10 mM MgCl2, 0.5 M NaCl, 5 mM DTT, 0.05 mg/mL poly(dI-dC), 20 ul, room temperature 30 min; 6% native PAGE; recombinant …; protein details: His (Ni resin, pET28a); label: 5'-Cy5

CTCTCCTCCTTCCTCTCCGCTCCTCACCACGTGGGTTTGTTGAGTGGGAG (double strand) [NcATG8-Prob]
binding result ([1]; label: 5'-Cy5): binds

TTATAAGGAAAACTAGTTATTTTAGTTAAAAACGAAACACATGCATCACA (double strand) [NcATG5-Prob1]
binding result ([1]; label: 5'-Cy5 (FAM also mentioned)): binds

TTATGTTATGTATGTGAGTCAAGTGATCCGAAGCAATTGCAACTAACAAG (double strand) [NcATG5-Prob2]
binding result [2]: binds
